## Percent effect of library compounds

The values are deposited in ChEMBL (CHEMBL3988442, “University of Dundee, Small-Polar-MMV Screening Library” (2021)).

Each number is a percent effect as filed. How 0% and 100% were set is not recorded. Most values in the screen are low, and negative values occur. The entries come from a sample that favours strong results. Two or more numbers in one place are separate tests of the same structure; such repeats can differ widely. A dash means the value is not listed here; it may have been measured.

Mtb glucose medium: 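Growth of Mycobacterium tuberculosis over 3 days (7H9 medium with glucose and tyloxapol); the read-out is not stated. Tested at 50 µM. Higher reads as more growth inhibition (inferred: compounds with an IC50 in retests scored well above the rest). About 69,000 compounds were tested under these conditions; 1.1% (about 760) showed 50% or more at least once.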
Mtb cholesterol medium: 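Phenotypic screen: M. tuberculosis growth, cholesterol and DPPC medium, 4 days; the read-out is not stated. Compounds at 50 µM. The record gives no direction; compounds that gave an IC50 in retests scored well above the rest, so higher reads as more growth inhibition. Of about 69,000 compounds tested this way, about 370 (0.54%) reached 50% or more in at least one test.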

Compound,Mtb glucose medium,Mtb cholesterol medium
CCC1CCCCCN1C(=O)c1coc(S(=O)(=O)N(C)C)c1 (stereo not shown),10.76% and 2.213%,-
Cn1cnc2c1CCN(Cc1csc(-c3ccccc3)n1)C2,-6.514%,-29.68%
CCc1nc2c(NCC3COc4c(cccc4OC)C3)ncnc2o1 (stereo not shown),64.54%,-
COc1ccc(C(=O)O)cc1-c1cccc2c1CCNC2,-3.504% and -2.881%,-0.7425%
CCN(CC)CCNc1nc(C(C)C)nc2c(C)nn(CC)c12,25.29%,-
Cc1ccccc1OCCN(C)Cc1noc(CC(C)C)n1,50.71%,-
c1cncc(OC2CCN(CCn3cc4ccccc4n3)CC2)c1,11.24%,3.083%
COCc1ccc(C(=O)N2CCCN(Cc3ccc(F)cc3)CC2)s1,-45.6%,-3.687%
COc1ccc(-c2nc(C3(NC(=O)OC(C)(C)C)CCC3)no2)cn1,18.76%,7.478%
CSCC(=O)NS(=O)(=O)c1ccc(C#N)c(C(F)(F)F)c1,-39.61%,-
CCN1CCN(c2ccc(C(=O)NC(C)C(=O)N(C)C)cc2)CC1 (stereo not shown),-12.21%,-
Cc1nc(-c2cccc(N3CCC(N4CCCC(C#N)C4)CC3)c2)cs1 (stereo not shown),-32.62%,-
O=C(NCCCN1CCCC1=O)c1ccc(-n2ccc3ccccc32)s1,33.08%,-4.558%
O=C(Cc1ccc2c(c1)OCCO2)N1CCCC(n2ccnc2)C1 (stereo not shown),-,76.43%
CCc1c(C(=O)NC2CCS(=O)(=O)C2)cnn1-c1ccc(C)cc1 (stereo not shown),10.28%,-11.72%
Cc1nc2c(c(NCc3cc4ccccc4s3)n1)CCNCC2,62.52%,-
CCC(C)CS(=O)(=O)NCCc1csc(N2CCCC2)n1 (stereo not shown),4.245%,-
Cn1c2c(c(=O)n1C)CN(C(=O)c1ccco1)CCC2,-,62.51% and -26.21%
O=S(=O)(CCO)Cc1ccc(OCC(F)(F)F)cc1,15.59%,7.354%
Cc1noc(NC(=O)c2ccc(Br)cc2)n1,8.635%,11.65%
Cc1cnc(N2CCc3c(CN(C)Cc4ccco4)cncc3C2)nc1,18.92%,-
O=C1CCCN1CCc1noc(-c2ccc(Cl)cc2)n1,-13.18%,-
CC(CNS(N)(=O)=O)c1ccc(F)c(F)c1 (stereo not shown),-2.425% and -3.701%,-
CC(C)c1cc(C(=O)N2CCN(Cc3ccsc3)CC2)n[nH]1,79.47%,12.59%
Cc1noc(NC(=O)CCNC(=O)c2ccc(Br)cc2)n1,-28.45%,-
CCCNc1ncc(CN2CCOC(Cc3cccc(F)c3)C2)cn1 (stereo not shown),-17.44%,-10.88%
COc1cn(-c2ccccc2)nc1C(=O)NCCN1CCCC(C)C1 (stereo not shown),15.59%,5.927%
CCC(NS(=O)(=O)N1CCOCC1)c1ccccc1OC (stereo not shown),-9.334% and -1.575%,-
Cc1ccc2c(c1)OC(C)CN2C(=O)c1c[nH]c(C)cc1=O (stereo not shown),17.83%,-
CC1c2cccn2CCN1C(=O)CCc1nc(-c2ccccc2)no1 (stereo not shown),-8.247% and -4.303%,-
Clc1ccc2nc(N3CCC(NCCCC4CCOC4)CC3)sc2c1 (stereo not shown),1.498%,-10.29%
CNc1nc2c(s1)C(c1cc(Cl)ccc1F)CC(=O)N2 (stereo not shown),27.4%,-
COCCN(Cc1ccoc1)S(=O)(=O)c1ccc(OC)c(Cl)c1,-,4.064%
CCCN(CCC)C(=O)Cn1c(SC)nc2ccsc2c1=O,-2.918%,-
Cc1ccccc1SCC(=O)NC1CCC(O)CC1 (stereo not shown),-15.31%,-
Cc1ccn(CCC(=O)NCc2ccco2)n1,33.7%,-
Cc1cccc(NCCNc2ccc(C#N)cn2)n1,-2.257%,-0.889%
Cc1cnn(C2CN(Cc3noc(C4CC4)n3)C2)c1,2.973%,3.343%
CN(Cc1ccccc1)CC1(O)CCCN(CC(C)(C)C)C1=O (stereo not shown),-1.77% and 23.07%,-
Cc1nc(C2CCCN(C(=O)c3cccc(S(C)(=O)=O)c3)C2)no1 (stereo not shown),26.47%,-
Cc1ccc(CN(CCCn2ccnc2)Cc2c[nH]nc2C(C)(C)C)s1.O=C(O)CC(O)(CC(=O)O)C(=O)O,15.22%,-
Cn1nc(CN2CCCN(C3CCCC3)CC2)c2c(Cl)cccc21,63.78%,-
[H][C@@]12C[C@@H](OC)C[C@]1([H])CN(C(=O)Cc1ccc(C)s1)C2,-,33.25% and 43.65%
CCc1nc2c(NCC3COc4ccccc4C3)ncnc2o1 (stereo not shown),33.42%,-
COc1ccc(-c2ccccc2CCN)c(OC)c1OC,53.44% and 50.26%,26.01%
O=C(NC1CC1)N1CCN(c2cnccn2)CC1,-77.58% and -2.009%,-
COc1cccc2c1OCC(C(=O)N1CCN(C3CCCC3)C(=O)C1)C2 (stereo not shown),61.7%,-
CNC(=O)CCS(=O)(=O)Cc1nnnn1-c1ccccc1,13% and 1.25%,-
Cc1ccc(CNC(=O)CCN2CCN(c3ccccn3)CC2)n1C,-,-32.33%
CCCN1CCC(c2cc(CCOc3ccc(C(F)(F)F)cc3)[nH]n2)C1 (stereo not shown),-,21.96% and 18.92%
Cc1ccsc1[C@@H]1CCN(C(=O)CCC(=O)c2ccccc2)C[C@H]1O,-23.2% and 1.884%,-
CCOc1cccc(C(=O)Nc2ccn(CC)n2)c1,27.43%,-
Cc1nc(C2CCCN(C(=O)c3cc4c(s3)CCCC4)C2)no1 (stereo not shown),10.11% and 51.1%,-
Clc1cccc(C(NCc2ncc[nH]2)c2ccccn2)c1 (stereo not shown),8.328% and 20.06%,4.089%

The last 5 entries again:

Compound	Mtb glucose medium	Mtb cholesterol medium
CCCN1CCC(c2cc(CCOc3ccc(C(F)(F)F)cc3)[nH]n2)C1 (stereo not shown)	-	21.96% and 18.92%
Cc1ccsc1[C@@H]1CCN(C(=O)CCC(=O)c2ccccc2)C[C@H]1O	-23.2% and 1.884%	-
CCOc1cccc(C(=O)Nc2ccn(CC)n2)c1	27.43%	-
Cc1nc(C2CCCN(C(=O)c3cc4c(s3)CCCC4)C2)no1 (stereo not shown)	10.11% and 51.1%	-
Clc1cccc(C(NCc2ncc[nH]2)c2ccccn2)c1 (stereo not shown)	8.328% and 20.06%	4.089%